Measured values from several laboratories, pooled; numbers as filed in NIAID ChemDB.

Common to all: whole-cell or culture tests; organism: Mycobacterium avium complex; endpoint: MIC

Neighbouring rows are from separate reports. An empty or dashed field is not shown.

SMILES,strain or isolate,read by,result
CN[C@@H]1[C@H](O[C@H]2[C@H](O[C@H]3[C@H](O)[C@@H](O)[C@H](N=C(N)N)[C@@H](O)[C@@H]3N=C(N)N)O[C@@H](C)[C@]2(O)C=O)O[C@@H](CO)[C@H](O)[C@H]1O,TMC 1403,-,0.39 µg/mL
O=C(O)c1cn(C2CC2)c2c(F)c(N3CC4CCCC(C3)N4)c(F)cc2c1=O,1172733,-,8 µg/mL
NNC(=O)c1ccncc1,13008 (serotype 20),-,0.8 µg/mL
CC[C@H]1OC(=O)[C@H](C)[C@@H](O[C@H]2C[C@@](C)(OC)[C@@H](O)[C@H](C)O2)[C@H](C)[C@@H](O[C@@H]2O[C@H](C)C[C@H](N(C)C)[C@H]2O)[C@](C)(OC)C[C@@H](C)C(=O)[C@H](C)[C@@H](O)[C@]1(C)O,3218,-,2 µg/mL
NC1CCN(c2c(F)cc3c(=O)c(C(=O)O)cn(C4CC4)c3c2F)C1,1760694,-,16 µg/mL
NC[C@H]1O[C@H](O[C@H]2[C@H](O)[C@@H](O[C@H]3O[C@H](CO)[C@@H](O)[C@H](N)[C@H]3O)[C@H](N)C[C@@H]2N)[C@H](O)[C@@H](O)[C@@H]1O,isolate C-17 19 26 34 44,-,≤12.5 µg/mL
CC1COc2c(N3CCN(C)CC3)c(F)cc3c(=O)c(C(=O)O)cn1c23,827/HIV+,-,4 µg/mL
NCC1CN(c2c(F)cc3c(=O)c(C(=O)O)cn(C4CC4)c3c2F)CC1c1ccccc1,1760694,-,16 µg/mL
NC[C@H]1O[C@H](O[C@H]2[C@H](O)[C@@H](O[C@H]3O[C@H](CO)[C@@H](O)[C@H](N)[C@H]3O)[C@H](N)C[C@@H]2N)[C@H](O)[C@@H](O)[C@@H]1O,N-980 (HIV+),-,8 µg/mL
O=C(O)c1cn(C2CC2)c2c(F)c(N3CCS(=O)CC3)c(F)cc2c1=O,1760694,-,4 µg/mL
CC[C@@H](CO)NCCN[C@@H](CC)CO,13008 (serotype 20),-,0.8 µg/mL
CC1COc2c(N3CCN(C)CC3)c(F)cc3c(=O)c(C(=O)O)cn1c23,CIPT 140310030,-,20 µg/mL
NC[C@@H]1O[C@H](O[C@H]2[C@@H](O)[C@H](O[C@@H]3[C@@H](O)[C@H](N)C[C@H](N)[C@H]3O[C@H]3O[C@H](CO)[C@@H](O)[C@H](O)[C@H]3N)O[C@@H]2CO)[C@H](N)[C@@H](O)[C@@H]1O,Isolate 135,-,25 µg/mL
O=C(O)c1cn(C2CC2)c2c(F)c(N3CCC(NC4CC4)C3)c(F)cc2c1=O,1172733,-,1 µg/mL
CC[C@@H](CO)NCCN[C@@H](CC)CO,3217,-,8 µg/mL
CC[C@H]1OC(=O)[C@H](C)[C@@H](O[C@H]2C[C@@](C)(OC)[C@@H](O)[C@H](C)O2)[C@H](C)[C@@H](O[C@@H]2O[C@H](C)C[C@H](N(C)C)[C@H]2O)[C@](C)(OC)C[C@@H](C)C(=O)[C@H](C)[C@@H](O)[C@]1(C)O,1168,-,4 µg/mL
NC[C@H]1O[C@H](O[C@H]2[C@H](O)[C@@H](O[C@H]3O[C@H](CO)[C@@H](O)[C@H](N)[C@H]3O)[C@H](N)C[C@@H]2N)[C@H](O)[C@@H](O)[C@@H]1O,Isolate 53,-,6.25 µg/mL
CO[C@H]1/C=C/O[C@@]2(C)Oc3c(C)c(O)c4c(O)c(c(/C=N/N5CCN(C)CC5)c(O)c4c3C2=O)NC(=O)/C(C)=C\C=C\[C@H](C)[C@H](O)[C@@H](C)[C@@H](O)[C@@H](C)[C@H](OC(C)=O)[C@@H]1C,733/HIV+,-,2 µg/mL
C[C@@H]1CN(c2c(F)c(N)c3c(=O)c(C(=O)O)cn(C4CC4)c3c2F)C[C@H](C)N1,28,broth dilution,4 µg/mL
CO[C@H]1/C=C/O[C@@]2(C)Oc3c(C)c(O)c4c(O)c(c(/C=N/N5CCN(C/C=C/c6ccccc6)CC5)c(O)c4c3C2=O)NC(=O)/C(C)=C\C=C\[C@H](C)[C@H](O)[C@@H](C)[C@@H](O)[C@@H](C)[C@H](OC(C)=O)[C@@H]1C,SK40,-,0.06 µg/mL
NC[C@@H]1O[C@H](O[C@H]2[C@@H](O)[C@H](O[C@@H]3[C@@H](O)[C@H](N)C[C@H](N)[C@H]3O[C@H]3O[C@H](CO)[C@@H](O)C[C@H]3N)O[C@@H]2CO)[C@H](N)[C@@H](O)[C@@H]1O[C@H]1O[C@H](CO)[C@@H](O)[C@H](O)[C@@H]1O,Isolate 135,-,50 µg/mL
C[C@@H]1CN(c2c(F)c(N)c3c(=O)c(C(=O)O)cn(C4CC4)c3c2F)C[C@H](C)N1,1760694,-,4 µg/mL
CC(C)N=c1cc2n(-c3ccc(Cl)cc3)c3ccccc3nc-2cc1Nc1ccc(Cl)cc1,535/HIV+,-,0.25 µg/mL
CO[C@H]1/C=C/O[C@@]2(C)Oc3c(C)c(O)c4c(O)c(c5c(c4c3C2=O)NC2(CCN(CC(C)C)CC2)N=5)=NC(=O)/C(C)=C\C=C\[C@H](C)[C@H](O)[C@@H](C)[C@@H](O)[C@@H](C)[C@H](OC(C)=O)[C@@H]1C,2212-4,-,0.5 µg/mL
CC[C@@H](CO)NCCN[C@@H](CC)CO,N-269 (HIV-),-,8 µg/mL
CN1CCN(c2cc3c(cc2F)c(=O)c(C(=O)O)cn3-c2ccc(F)cc2)CC1,3216,-,32 µg/mL
NNC(=O)c1ccncc1,1069,-,>16 µg/mL
NCC[C@H](O)C(=O)N[C@@H]1C[C@H](N)[C@@H](O[C@H]2O[C@H](CN)[C@@H](O)[C@H](O)[C@H]2O)[C@H](O)[C@H]1O[C@H]1O[C@H](CO)[C@@H](O)[C@H](N)[C@H]1O,SK47/HIV+,-,1.25 µg/mL
CCn1cc(C(=O)O)c(=O)c2cc(F)c(N3CCN(C)CC3)cc21,Isolate 861589,-,20 µg/mL

Repeating the first 3 entries:

SMILES,strain or isolate,read by,result
CN[C@@H]1[C@H](O[C@H]2[C@H](O[C@H]3[C@H](O)[C@@H](O)[C@H](N=C(N)N)[C@@H](O)[C@@H]3N=C(N)N)O[C@@H](C)[C@]2(O)C=O)O[C@@H](CO)[C@H](O)[C@H]1O,TMC 1403,-,0.39 µg/mL
O=C(O)c1cn(C2CC2)c2c(F)c(N3CC4CCCC(C3)N4)c(F)cc2c1=O,1172733,-,8 µg/mL
NNC(=O)c1ccncc1,13008 (serotype 20),-,0.8 µg/mL